Reference: paper PMC5584973, “Characterization of novel bangle lectin from Photorhabdus asymbiotica with dual sugar-binding specificity and its effect on host immunity” (PLoS Pathogens, 2017)

Columns and labels:
[1] = target: T1, PHL (Photorhabdus asymbiotica, UniProt C7BLE4); test: SPR binding of PHL to immobilized sugars; conditions: read-out: apparent KD, immobilized sugar
Experimental: SPR experiments were performed in a BIAcore T200 instrument (GE Healthcare) at 25°C. The carboxymethyldextran surface of a CM5 (GE Healthcare, UK) sensor chip was activated with N-ethyl-N-(3-dimethylaminopropyl)carbodiimide/N-hydroxysuccinimide solution according to the manufacturer’s standard protocol using HBS buffer (10 mM HEPES, 150 mM NaCl, 0.05% Tween 20, pH 7.5). Streptavidin was immobilized into all four channels to a final response of 6,300–7,500 RU. Subsequently, the sensor surface was blocked with 1 M ethanolamine. Biotinylated α/β-D-mannoside, α/β-D-galactoside and α-L-fucoside were injected into three measuring channels (final response ~ 140 RU) and pure biotin in the blank channel at a flow rate of 5 μl/min. In the experimental setup, measurements were carried out simultaneously in all four measuring channels using buffer A (300 mM NaCl, 20 mM Tris/HCl, pH 7.5) supplemented with 0.05% Tween20 at a flow rate of 20 μl/min. The interaction of PHL with immobilized sugars was measured over the concentration range 200–0.16 μg/ml.

[2] = target: T1, PHL; test: Glycan array screening of DyLight 488-labelled PHL; conditions: PHL 200 μg/ml
Experimental: Purified PHL lectin samples were labelled with DyLight 488 NHS Ester (Thermo Scientific) according to the manufacturer’s instructions and dialysed against PBS buffer (137 mM NaCl, 2.7 mM KCl, 8 mM Na2HPO4, 1.47 mM KH2PO4, pH 7.4). The labelled protein was used for glycan array screening following the manufacturer’s standard procedure (Semiotik, Moscow, Russia). To determine the lectin specificity, the screening of the printed glycan microarray chip (slide number 10085636, with ~400 mammalian glycans and ~200 bacterial polysaccharides, all in 6 replicates) was performed with a PHL concentration of 200 μg/ml in PBS buffer. The relative binding of PHL was calculated as an average fluorescence from six replicates of each saccharide present in the array.

C[C@@H]1O[C@@H](O)[C@@H](O)[C@H](O)[C@@H]1O
Kd [1]: 1400 nM
relative binding / preference on glycan array [2]: highest relative binding
